Results reported in US7968297B2, “Method for identification, isolation and production of antigens to a specific pathogen” (Intercell AG, priority 2001, dated 2011).

Tested on: antibodies in human serum
Test: Bacterial surface display library screening by MACS with biotinylated human serum
Assay type: binding
Conditions: for No. of selected clones per ORF and screen: C: Bacterial surface display: C; for No. of selected clones per ORF and screen: F: Bacterial surface display: F, LSA50/6 library in lamB with patient sera P1 (1105); for No. of selected clones per ORF and screen: A: Bacterial surface display: A, LSE150 library in fhuA with patient sera 2 (957); for No. of selected clones per ORF and screen: B: Bacterial surface display: B
[1] = LSE70 library in lamB with patient sera 1 (551)
[2] = ORFs selected by bacterial surface display (screens A, B, C; some also D)
[3] = identified by bacterial surface display
[4] = LSE70 library in lamB with patient sera 2 (1420)

B1: CRF0622 (protein)
chain: SRTLRALLLILQTGMMCGLLWSSSEIIIKFFSPLFVNPYTSSYFATSLINSLILISSNSDINSSVILTISTMFPSSPLFTLTKTLSPGSKISSISYVTKRSISALMILS
Question: Which results are given for B1?
Answer: No. of selected clones per ORF and screen: C [1]: C: 4; Location of identified Immunogenic region [2]: aa 75-99

B2: CRF2155 (protein)
chain: ILSAALSTPALLNNTSILPNCSFMSDTKSTTCCSLALSTLYAFALSPLLLILSTVSDTASAMSTANTYAPY
Question: For B2, which “No. of selected clones per ORF and screen: F” value is on record?
Answer: F: 9

Question: And the “Location of identified Immunogenic region” value (“Location” for short) [3]?
Answer: aa 54-66

B3: ORF0979 (protein, listed as Staphylococcus epidermidis)
chain: MMIIVMLILSYLIGAFPSGLIIGKLFFKKDIRQYGSGNTGATNSFRVLGRPAGFIVTFLDIFKGFITVFFPLWFPVHADGVISTFFTNGLIVGLFAILGHVYPIYLKFNGGKAVATSAGVVLGVNPILLLILAIIFFSVLKIFKYVSLSSIIAAISCVIGSIIIHDYILLAVSGIVSIILIIRHKSNIVRIFKGEEPKIKWM
Question: What does the source list for B3?
Answer: No. of selected clones per ORF and screen: A: A: 9,; No. of selected clones per ORF and screen: B [4]: B: 18; Location of identified Immunogenic region [2]: aa 12-51

B4: CRF2180 (protein)
chain: PGAIVSGPYSVNSLIGSFVISSFGSPLLIITPVNGFFSVGVVIVFSPFCPSLVTFSVPGAKSGLNLRSFLNGISSTFFSNSVIVFGASGVKVNSEPFKSVLIQPFAFIP
Question: How did the “No. of selected clones per ORF and screen: E” value (Bacterial surface display: E, LSA50/6 library in lamB with IC sera 2 (454)) turn out when B4 was run?
Answer: E: 13

Question: And the “Location” value [3]?
Answer: aa 86-99

B5: CRF0192 (protein)
chain: LYHQMVLQFLLNLVQIRYHHPSSFQRKLYQVLQITVLSHHVQVRKFLFLQYLPHVQDHLTLLHQLLFHLVL
Question: How did the “No. of selected clones per ORF and screen: C” value [1] turn out when B5 was run?
Answer: C: 4

Question: And the “Location” value [2]?
Answer: aa 15-34

B6: CRF2307 (protein)
chain: SSTACIKSKIFCSYSASPSNAFNAEPAITGTSSPGKSYSLNKSRTSISTNSNNSSSSTMSTLFKNTTNAGTPTLRDNKMCSRVCGIGPSAADTTKIPPSI
Question: Which results are given for B6?
Answer: No. of selected clones per ORF and screen: A: A: 19; Location of identified Immunogenic region [2]: aa 41-87

B7: ORF0355 (protein, listed as Staphylococcus epidermidis)
chain: MSKHSATLVIMFLITLLPIFQYQASAHATLEKSTPQQQGVIKDKPEAIKLEFNEPVNTKYSSVTLFDDKGKKIKDLKPITTGWSQTVVFSSEQIVNGTNTIEWHTVSADGHEVGDTFEFSVGKVRLKM
Question: For B7, which “No. of selected clones per ORF and screen: C” value [1] is on record?
Answer: C: 5

Question: What about the “Location” value [2] of the same molecule?
Answer: aa 63-86

B8: ORF2669 (protein, listed as Staphylococcus epidermidis)
chain: MHYLKKVTIYISLLILVSGCGDSKETEIKQNFNKMLNVYPTKNLEDFYDKEGYRDEEFDKDDKGTWIIRSEMTKQPKGKIMTSKGMVLHMNRNTRSTTGYYVIRKISEDNKSEIDDEEKKYPIKMVNNKIIPTQKINDNKLKNEIENFKFFVQYGSFKNSDDYKEGDIEYNPNAPNYSAQYHLSNDDYNIKQLRKRYDIKTKKTPRLLMRGAGDPKGSSVGYKNLEFTFVKNNEENIYFTDSINFNPSKGKSL
Question: For B8, which “No. of selected clones per ORF and screen: A” value is on record?
Answer: A: 14,

Question: And the “No. of selected clones per ORF and screen: B” value [4]?
Answer: B: 8

Question: And the “Location” value [2]?
Answer: aa 22-81

B9: ORF0442 (protein, listed as Staphylococcus epidermidis)
chain: MKKIKTISTLVAGLGIAFLGHTTHADAAENNNQQQSTYNYSTTEVSFSNSGNLYTSGQCTWYVYDKTGGKIGSTWGNANSWATAAQAAGFTVNNTPEEGAIMQSSEGAFGHVAFVESVNNDGSITVSEMNYDGGPFAISTRTISASEASSYNYIHLN
Question: B9 was tested. Which “No. of selected clones per ORF and screen: C” value [1] did it give?
Answer: C: 38

Question: What about the “Location” value [2] of the same molecule?
Answer: aa 60-102

B10: ORF2098 (protein, listed as Staphylococcus epidermidis)
chain: MIKKNKEELNDMEYLVTQENGTEPPFQNEYWNHFEKGIYVDKLSGKPLFTSEDKFESNCGWPSFSKALNDDEIVELVDKSFGMIRTEVRSEKANSHLGHVFNDGPKEKGGLRYCINSAAIQFIPYDKLEELGYGDLIKHFKK
Question: What does the source list for B10?
Answer: No. of selected clones per ORF and screen: A: A: 60; Location of identified Immunogenic region [2]: aa 1-57

B11: CRF2248 (protein)
chain: LSSSKALPSTSTFGNTAPNHLGRYHEALPKSFVNAGINVIRTTNASNNTPKPNAIPIDLIALSSWKTNAMNTLNIISAAATITGPLSLIPTRIE
Question: Which “No. of selected clones per ORF and screen: C” value [1] does the source give for B11 here?
Answer: C: 30

Question: And the “Location” value [2]?
Answer: aa 74-111

B12: ORF2260 (protein, listed as Staphylococcus epidermidis)
chain: MARIATKLGYPESNSFVTNTVIEFVLHNEAYPRLYRIKTRDTNLIKISQANEISRQITNGTMTLEEAKYQLEEIYVAKRDSSLPFKGIAAAIIATSFLYLQGGRLVDIITAVLAGTIGYLVVEILDRKLHAQFIPEFIGSLVIGIISVIGHAFVPSGDLATIIIAAVMPIVPGVLITNAIQDLFGGHMLMFTTKSLEALVTAFGIGAGVSSILILV
Question: B12 was tested. Which “No. of selected clones per ORF and screen: B” value [4] did it give?
Answer: B: 4

Question: What about the “Location” value [2] of the same molecule?
Answer: aa 123-142

B13: CRF0275 (protein)
chain: RILWSSLCVIHKMAIPLSASLNIISSIFFLLCVSKALVASSNNKTSGSYMSCLAMVIRCCSPPDMCSI
Question: Which “No. of selected clones per ORF and screen: B” value [4] does the source give for B13 here?
Answer: B: 5

Question: What about the “Location” value [2] of the same molecule?
Answer: aa 35-68

B14: ORF2958 (protein, listed as Staphylococcus aureus)
chain: MKMKNIAKISLLLGILATGVNTTTEKPVHAEKKPIVISENSKKLKAYYNQPSIEYKNVTGYISFIQPSIKFMNIIDGNSVNNIALIGKDKQHYHTGVHRNLNIFYVNEDKRFEGAKYSIGGITSANDKAVDLIAEARVIKEDHTGEYDYDFFPFKIDKEAMSLKEIDFKLRKYLIDNYGLYGEMSTGKITVKKKYYGKYTFELDKKLQEDRMSDVINVTDIDRIEIKVIKA
Question: With B14 as the molecule, how does the “No. of selected clones per ORF and screen: F” value read?
Answer: F: 1

Question: What about the “Location” value [3] of the same molecule?
Answer: aa 154-168

B15: CRF2305 (protein)
chain: LLTFIAVKPTMTNKIIANTFKITKIFSIRAASDIPRDSNNAVNKITIAAIISIKPPFVPNGFDNAAGNSMPIGFTSPRKFAENPDATKATAIKYSANRAQPATHPKNSPNNTLTQE
Question: For B15, which “No. of selected clones per ORF and screen: C” value (LSA250/1 library in fhuA with IC sera 1 (571)) is on record?
Answer: C: 5

Question: And the “Location” value [3]?
Answer: aa 80-116

B16: CRF2729 (protein)
chain: GMKMISISDEINCLICCNCVGLCSFISSAKYIFWISISSNTVAKTSIKRGKFLVTARSIRR
Question: Which results are given for B16?
Answer: No. of selected clones per ORF and screen: F: F: 3; Location of identified Immunogenic region [3]: aa 40-56

B17: CRF2349 (protein)
chain: SIIVNTVSKCIKVRLVGISIATTFLNVACGFSKIRRANFSIACADVRSETPIAKTSLDKTSSSPPSILNGQSRSNQIGIFASLNLG
Question: How did the “No. of selected clones per ORF and screen: B” value (LSA50/6 library in lamB with patient sera 1 (484)) turn out when B17 was run?
Answer: 10

Question: What about the “No. of selected clones per ORF and screen: F” value of the same molecule?
Answer: 4

Question: What about the “Location” value [3] of the same molecule?
Answer: aa 46-67

B18: CRF2341 (protein)
chain: DVLKLSSIKLYVFIIHFLTYFLNLRMRRFLTFLMLAFFFIFQMLNKIKARSPFSQCFHHIIPIRTDLLIYILQ
Question: Which results are given for B18?
Answer: No. of selected clones per ORF and screen: F: F: 8; Location of identified Immunogenic region [3]: aa 46-55
